In PMC5995839, “Exploring the role of unnatural amino acids in antimicrobial peptides” (Scientific Reports, 2018):
Square brackets hold non-standard residues; d marks the D form. Peptide text beside a SMILES is read from it. * marks the point of attachment. 2Nal = N[C@@H](Cc1ccc2ccccc2c1)C(=O)O; Ahx = NCCCCCC(=O)O; StBu = CC(C)(C)S*

Columns and labels:
[1] = EPR of spin-labeled lipids (n-PCSL) in DPPC bilayers; conditions: for hyperfine coupling constant a′N, 5-PCSL / hyperfine coupling constant a′N, 14-PCSL: error 0.2 G; for Order parameter S, 5-PCSL / Order parameter S, 14-PCSL: error <±2%
[2] = EPR of spin-labeled lipids (n-PCSL) in DPPC/DPPG bilayers; conditions: for hyperfine coupling constant a′N, 5-PCSL / hyperfine coupling constant a′N, 14-PCSL: error 0.2 G; for Order parameter S, 5-PCSL / Order parameter S, 14-PCSL: error <±2%

Structure (SMILES): CC(C)(C)SSC[C@H](NC(=O)CCCCCN)C(=O)N[C@@H](CCCCN)C(=O)N[C@@H](Cc1ccc2ccccc2c1)C(=O)N[C@@H](Cc1ccc2ccccc2c1)C(=O)N[C@@H](CCCCN)C(=O)N[C@@H](CCCCN)C(=O)N[C@@H](CSSC(C)(C)C)C(=O)NCCCCCC(N)=O [P9Nal(SS)] (H-[Ahx]C(StBu)K[2Nal][2Nal]KKC(StBu)[Ahx]-NH2)
- hyperfine coupling constant a′N, 5-PCSL ([1]; L/P = 30, 25 °C): 15.6 G
- hyperfine coupling constant a′N, 14-PCSL ([1]; L/P = 30, 25 °C): 16.8 G
- Order parameter S, 5-PCSL ([1]; L/P = 30, 25 °C): 0.79
- Order parameter S, 14-PCSL ([1]; L/P = 30, 25 °C): 0.60
- hyperfine coupling constant a′N, 5-PCSL ([1]; L/P = 50, 25 °C): 15.2 G
- hyperfine coupling constant a′N, 14-PCSL ([1]; L/P = 50, 25 °C): 14.8 G
- Order parameter S, 5-PCSL ([1]; L/P = 50, 25 °C): 0.86
- Order parameter S, 14-PCSL ([1]; L/P = 50, 25 °C): 0.49
- hyperfine coupling constant a′N, 5-PCSL ([1]; L/P = 100, 25 °C): 15.2 G
- hyperfine coupling constant a′N, 14-PCSL ([1]; L/P = 100, 25 °C): 14.6 G
- Order parameter S, 5-PCSL ([1]; L/P = 100, 25 °C): 0.87
- Order parameter S, 14-PCSL ([1]; L/P = 100, 25 °C): 0.48
- hyperfine coupling constant a′N, 5-PCSL ([2]; L/P = 10, 25 °C): 15.4 G
- hyperfine coupling constant a′N, 14-PCSL ([2]; L/P = 10, 25 °C): 16.8 G
- Order parameter S, 5-PCSL ([2]; L/P = 10, 25 °C): 0.84
- Order parameter S, 14-PCSL ([2]; L/P = 10, 25 °C): 0.65
- hyperfine coupling constant a′N, 5-PCSL ([2]; L/P = 25, 25 °C): 15.1 G
- hyperfine coupling constant a′N, 14-PCSL ([2]; L/P = 25, 25 °C): 15.2 G
- Order parameter S, 5-PCSL ([2]; L/P = 25, 25 °C): 0.90
- Order parameter S, 14-PCSL ([2]; L/P = 25, 25 °C): 0.55
- hyperfine coupling constant a′N, 5-PCSL ([2]; L/P = 30, 25 °C): 15.1 G
- hyperfine coupling constant a′N, 14-PCSL ([2]; L/P = 30, 25 °C): 15.0 G
- Order parameter S, 5-PCSL ([2]; L/P = 30, 25 °C): 0.89
- Order parameter S, 14-PCSL ([2]; L/P = 30, 25 °C): 0.53
- hyperfine coupling constant a′N, 5-PCSL ([2]; L/P = 100, 25 °C): 15.3 G
- hyperfine coupling constant a′N, 14-PCSL ([2]; L/P = 100, 25 °C): 15.1 G
- Order parameter S, 5-PCSL ([2]; L/P = 100, 25 °C): 0.86
- Order parameter S, 14-PCSL ([2]; L/P = 100, 25 °C): 0.51
